Pooled drug test results. Numbers come from NIAID ChemDB, via PubChem.

Common to all: tests in culture; species: Human cytomegalovirus; endpoint: EC50

ECn is the concentration giving n% inhibition of infection, replication or growth.

O=C(NCc1ccc(Cl)cc1)c1c[nH]c2ccc(C#CCO)cc2c1=O ; strain: 759rD100 ; read by: plaque count ; value: 0.1 µM
COc1cccc(N2CCN(C3=Nc4c(F)cccc4[C@H](CC(=O)O)N3c3cc(C(F)(F)F)ccc3OC)CC2)c1 ; strain: AD169 ; read by: plaque count ; value: 0.0051 µM
Nc1ncnc2c1ncn2C=C1CC1CO ; strain: AD169 ; read by: plaque count ; value: 1.2 µM
Cc1cc(C)cc(Cn2c(=O)ccn(Cc3ccsc3)c2=O)c1 ; strain: AD169 ; value: 23 µM
Cc1nc(N2CCOC[C@H]2C)nc(-n2ccnc2)c1[N+](=O)[O-] ; value: 0.11 µM
CSCCn1ccc(=O)n(Cc2cc(C)cc(C)c2)c1=O ; strain: AD169 ; value: >160 µM
O=C(NCc1ccc(Cl)cc1)c1c[nH]c2c(F)cc(CCCO)cc2c1=O ; strain: 759rD100 ; read by: plaque count ; value: 0.1 µM
O=C(NCc1ccc(Cl)cc1)c1c[nH]c2ccc(CCCO)cc2c1=O ; strain: SCH ; read by: plaque count ; value: 0.7 µM
Nc1nc2c(ncn2COC(CO)CO)c(=O)[nH]1 ; strain: Recombinant C4 (D341E) ; read by: virus yield ; value: <3.7 µM
CCC1CCCCN1c1nc(C)c([N+](=O)[O-])c(-n2ccnc2)n1 ; value: 0.22 µM
Cc1cc(C)cc(Cn2c(=S)ccn(Cc3ccncc3)c2=O)c1 ; strain: AD169 ; value: >15 µM
Cc1nc(N(C)c2ccccc2)nc(-n2ccnc2C)c1[N+](=O)[O-] ; value: ~1 µM
Cc1cc(C)cc(Cn2c(=O)ccn(CC(=O)c3ccccc3)c2=O)c1 ; strain: AD169 ; value: 110 µM
CCc1nccn1-c1nc(NC2Cc3ccccc3C2)nc(C)c1[N+](=O)[O-] ; value: 0.8 µM
Nc1nc2c(ncn2COC(CO)CO)c(=O)[nH]1 ; strain: AD169 ; read by: plaque count ; value: 8.4 µM

Repeating the final 2 entries:

compound	strain	read by	value
CCc1nccn1-c1nc(NC2Cc3ccccc3C2)nc(C)c1[N+](=O)[O-]			0.8 µM
Nc1nc2c(ncn2COC(CO)CO)c(=O)[nH]1	AD169	plaque count	8.4 µM

Neighbouring rows are from separate reports. Blank or dashed fields: not listed here.